Mtb glucose medium: 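Whole-cell growth test on Mycobacterium tuberculosis, read after 3 days in glucose-containing 7H9 medium; the read-out is not stated. Concentration: 50 µM. The record gives no direction; compounds that gave an IC50 in retests scored well above the rest, so higher reads as more growth inhibition. About 69,000 compounds were tested under these conditions; 1.1% (about 760) showed 50% or more at least once.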
Mtb cholesterol medium: 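Growth of Mycobacterium tuberculosis over 4 days (cholesterol / DPPC medium with tyloxapol); the read-out is not stated. Compounds at 50 µM. The record gives no direction; compounds that gave an IC50 in retests scored well above the rest, so higher reads as more growth inhibition. Of about 69,000 compounds tested this way, about 370 (0.54%) reached 50% or more in at least one test.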

Values are the deposited “Percent Effect”, in %. The record does not define 0% and 100%; most values in the screen are far below 50% and negative numbers occur (in some assays of this library far below -100). Many other results are left out here, so strong results are more common than in the screen. Two or more numbers in one place are separate tests of the same structure; such repeats can differ widely. A dash means the value is not listed here; it may have been measured.

SMILES	Mtb glucose medium	Mtb cholesterol medium
CCc1[nH]c2c(CNc3cc(C)nc(NC)n3)cc(C)cc2c1C	71.91 & 56.62	69.7
COc1c(F)cc(NCC(=O)NC(C)(C#N)C2CC2)cc1F (stereo not given)	18.62	16.31
COCCN(C)S(=O)(=O)c1cc(C)cc(F)c1	16.09 & 1.599	-
FC1(F)CCNCC12CCN(c1ccccn1)C2 (stereo not given)	-	-28.06
CCOCCCn1c(NC(=O)c2scnc2C)nc2ccccc21	54.96	-
COC(=O)[C@H](C)NC(=O)c1cc(-c2cccc(Cl)c2)no1	58.93 & 52.36	53.24
COc1cc(C)sc1C(=O)N1CCC(Nc2cccnc2)CC1	70.87	-
Cc1cccnc1CN(C)C(C(=O)O)c1ccc(-c2ccn[nH]2)cc1 (stereo not given)	64.73	-
O=C(COc1ccc2c(c1)OCO2)NCc1ccco1	35.99	-
Cc1csc(NC(=O)C(C)Oc2ccc3c(c2)OCO3)n1 (stereo not given)	57.37	-
CC(C)(C)Cc1nnc(NCc2ccsc2)o1	53.88	54.09
CCCn1c(N2CCCC2)nc2c(C)nn(C)c2c1=O	-0.1332	-
Cc1nc(CCN)cc(N2CCC(O)(c3ccc(Cl)cc3)CC2)n1	56.5	-
O=C(Cn1cccnc1=O)NCCc1ccc2c(c1)OCCO2	-9.186	-
O=C(NCCNc1ncccn1)NCCSC(F)(F)F	0.9432 & -10.58	-8.081
Cc1noc(NC(=O)c2ccc(OC(F)(F)F)cc2)n1	98.69	68.31
CS(=O)(=O)Cc1ccc(OCc2ccc(F)cc2)cc1	19.85	-
[H][C@]12OCCN(C(=O)COc3ccccc3)[C@@]1([H])CC[C@@H]2OCC	73.2	-
CC(C)(C)Oc1ccc(NCC(=O)NCc2ccco2)cc1	4.372	11.56
Cc1nn2c(NCC(N)=O)cc(-c3ccccc3)nc2c1C	-	-25.49 & -3.028
COc1cc(C2CC(=O)Oc3cc(C)[nH]c(=O)c32)ccc1OC(F)F (stereo not given)	2.222	-
Cc1nc(CN2CCC(NS(C)(=O)=O)CC2)co1	0.7448 & 60.76	-
Cc1nn2c(NCC(=O)NC3CC3)cc(-c3ccccc3)nc2c1C	-	58.28 & 47.02
O=S(=O)(Cc1ccccc1)CC(O)Cn1cccn1 (stereo not given)	-4.567	-
CCNc1ncc2c(n1)CN(c1ccc(Cl)cc1)C2=O	26.92	-
Cc1ccc2nc(CN(C)Cc3[nH]nc4c3CCC4)[nH]c2c1C	27.73	-
CCCc1nc2c(c(C)c(C)n2Cc2ccncc2)c(N)c1CC	62.75 & 7.657	-
CC(C)c1cc(C(=O)N2CCN(Cc3ccco3)CC2)n[nH]1	14.24 & -62.52	-
O=C(NCCN1CCCCC1)c1ccn(-c2ccccc2)n1	-1.392	-19.09
COC(=O)c1ccc(CN(C)C(=O)c2cnsn2)cc1	44.44	30.72
O=S(=O)(CCc1ccccc1Cl)CC(O)CO (stereo not given)	-7.157 & -6.903	0.8433
Clc1cc(NCc2nccs2)nc2[nH]ccc12	4.755	-
Cc1cc(C)nc(N2Cc3cnn(Cc4ccc(F)cc4)c3C2)n1	-0.9694	-23.97
Cc1[nH]ncc1C(=O)NCC1CCC2(CC1)OCCO2	12.41 & -5.693	9.829
Cc1ccc(-c2nnc(C(C)N3CCn4c(C)nnc4C3)o2)cc1 (stereo not given)	-25.49	-
CNc1cc(C)nc(N2C[C@H](C3CC3)[C@@H](N)C2)n1	9.983	5.037
FC1(F)CCN(Cc2ccncc2)CC12CCN(c1cnccn1)C2.O=C(O)C(F)(F)F.O=C(O)C(F)(F)F.O=C(O)C(F)(F)F (stereo not given)	-	6.976
O=C(c1cc(-c2cccs2)cs1)N1CCSCC1	55.56	-
COc1cccc(CNc2nc(C)cc(C)n2)c1OC	-3.254	-21.55
COCCN(Cc1cccs1)C(=O)C1CCCN(C(N)=O)C1 (stereo not given)	4.409 & -54.27	-
CN(Cc1nc2ccccc2o1)CC1CCCN1c1cccnn1 (stereo not given)	2.313	-
CCCc1nc(N2Cc3cnn(Cc4ccc(F)cc4)c3C2)no1	-	-9.229
CO[C@@H]1CCN(Cc2nccs2)C[C@@H]1Cc1ccccc1.O=C(O)C(F)(F)F	28.81	-
OC1CCN(C2CCN(c3ccc(Cn4ccnc4)cn3)CC2)CC1	-30.27	1.882
Cc1cc(NCCN)nc(-c2ccccc2O)n1	102.1 & 35.74	-
Fc1ccc(CN2CCCC(c3cc4ncccc4[nH]3)C2)cc1 (stereo not given)	-	44.6 & 53.67
CCc1nc(C2CCCN2C(=O)CCCOc2cccc(F)c2)no1 (stereo not given)	-	81.2 & -9.641
CCN1CCN(CC(O)c2ccc(F)cc2)CC1 (stereo not given)	16.95	-
CCSc1ncc(CN2CCN(c3nc(C)ncc3C)CC2)cn1	19.37	33.93
CC(=O)NCc1ccc(C(=O)NC2CCc3nc(C)cn3C2)o1 (stereo not given)	-	52.48
COc1coc(CN2CCCC(CCc3ccc(F)cc3)C2)cc1=O (stereo not given)	28.29 & 40.3	43.66
CCCc1cc(C(=O)N2C[C@H](O)[C@@H](N3CCCC3)C2)ccn1	20.06	-
CC(C)C(=O)Nc1cccc(OCC(=O)NCc2ccccc2F)c1	18.34	-
O=C(C1CC1)N(Cc1ccc2cc[nH]c2c1)C1CC1	8.002	-
COC(=O)c1sccc1S(=O)(=O)NCCc1ccoc1	-	7.363
NC(=O)NC(=O)CCN1CCCC1c1cccc2c1OCCO2 (stereo not given)	13.19	-
CN(Cc1nc(CC2CC2)no1)CC1Cc2ccccc2O1 (stereo not given)	-	53.98
CN1CCC(N(C)CCC(=O)N2CCC(CCc3ccccc3)CC2)C1 (stereo not given)	63.4	-
O[C@@H]1CN(c2nc3ccccc3o2)CC[C@H]1c1ccc2c(c1)OCO2	-32.97	-21.07
CC(C)C1CN(C(=O)c2ccccc2)CCS1 (stereo not given)	27.48 & 35.22	22.68
CN(Cc1nc2ccccc2n1C)CC1CCCN1c1cccnn1 (stereo not given)	58.48	-
O=S(=O)(c1cccnc1)N1CCCC1COc1ccccc1 (stereo not given)	3.534 & 9.103	-5.574
Cc1cc(C)cc(OCC(=O)N2CCCC2)c1	35.14	-
O=C(CCc1ccccn1)N1CCc2cc(Cl)cc(Cl)c2C1	7.992	-
Cc1ccc(NC2CCN(C(=O)C(C)n3cncn3)CC2)nn1 (stereo not given)	-4.465 & 98.34	-
Cc1cn2c(n1)C(CNCC1=Cc3ccccc3OC1)CCC2 (stereo not given)	39.42	-
COCc1ccc(C(=O)N2CCCN(c3ccc(F)cc3)CC2)s1	9.309	24.41
c1ccc(CCc2n[nH]c(C3CCOC3)n2)cc1 (stereo not given)	-	2.476
CCNC(=O)N1CCC2(C1)c1ccccc1S(=O)(=O)N2CCC(C)C (stereo not given)	-1.891	11.86
COc1ccc(CN2CCc3nc4ccsc4c(=O)n3CC2)c(C)c1C	-3.322	-16.65
O=C(c1cnc(C2CC2)nc1)N1CCCC(c2nccs2)C1 (stereo not given)	-	60.36 & 26.23
CCc1ccccc1NC(=O)NCc1nnc(SC)n1C	-	4.11 & 72.7
CC(C)C(C(=O)NCc1ccccc1-n1cccn1)N(C)C (stereo not given)	-8.213	-
Cc1noc(NC(=O)c2ccc(Br)cc2)n1	8.635	11.65

The first 7 entries again:

{"smiles": "CCc1[nH]c2c(CNc3cc(C)nc(NC)n3)cc(C)cc2c1C", "Mtb glucose medium": "71.91 & 56.62", "Mtb cholesterol medium": 69.7}
{"smiles": "COc1c(F)cc(NCC(=O)NC(C)(C#N)C2CC2)cc1F", "stereo": "stereo not given", "Mtb glucose medium": 18.62, "Mtb cholesterol medium": 16.31}
{"smiles": "COCCN(C)S(=O)(=O)c1cc(C)cc(F)c1", "Mtb glucose medium": "16.09 & 1.599"}
{"smiles": "FC1(F)CCNCC12CCN(c1ccccn1)C2", "stereo": "stereo not given", "Mtb cholesterol medium": -28.06}
{"smiles": "CCOCCCn1c(NC(=O)c2scnc2C)nc2ccccc21", "Mtb glucose medium": 54.96}
{"smiles": "COC(=O)[C@H](C)NC(=O)c1cc(-c2cccc(Cl)c2)no1", "Mtb glucose medium": "58.93 & 52.36", "Mtb cholesterol medium": 53.24}
{"smiles": "COc1cc(C)sc1C(=O)N1CCC(Nc2cccnc2)CC1", "Mtb glucose medium": 70.87}

Data taken from ChEMBL document CHEMBL3988442, “University of Dundee, Small-Polar-MMV Screening Library” (2021).